Reference: PubChem BioAssay AID1259414 (Drosophila RNAi Screening Center, 2018)
The screen tested about 24,000 reagents; below is a random part of those with a known target gene and a result. Of all reagents, about 1,210 (5%) got an active call. 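Inactive calls also include excluded dsRNAs with several or no targets, genes unexpressed in JW18, and well A1, regardless of score.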 The numbers tell different reagents against one gene apart.

- Assay: 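Fly genes that alter Wolbachia amount inside host cells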 (primary screen)
- Cell system: Drosophila JW18 cells infected with Wolbachia
- Knock-down reagent: long dsRNA against Drosophila genes, 0.25 µg dsRNA per well of a 384-well plate
- Time to read-out: 5 days
- Conditions: cells persistently infected with Wolbachia before knock-down; no added drug
- Read-out: 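Automated imaging of bacterial rRNA staining divided by host cell count, reported as plate-normalised robust z-score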
- Scale: Wolbachia per cell robust z: higher = more Wolbachia per host cell than the plate typical
- Rule for the call: 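Hit when robust z is 1.5 or more, or -1.5 or less, in at least two of three replicates; excludes dsRNAs with several or no targets, genes not expressed in JW18 and well A1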

CG8064 showed Wolbachia per cell robust z, rep 1 = 1.67; Wolbachia per cell robust z, rep 2 = -0.929; Wolbachia per cell robust z, rep 3 = -3.62; inactive.
Silencing of MP1 (Melanization Protease 1) #1 gave: Wolbachia per cell robust z, rep 1 = 0.0987; Wolbachia per cell robust z, rep 2 = -4.72; Wolbachia per cell robust z, rep 3 = 0.209; inactive.
Against MP1 (Melanization Protease 1) #2 the deposit lists Wolbachia per cell robust z, rep 1 = -0.0567; Wolbachia per cell robust z, rep 2 = -1.38; Wolbachia per cell robust z, rep 3 = -4.42; inactive.
With knock-down of CG9068 the results were Wolbachia per cell robust z, rep 1 = -1.31; Wolbachia per cell robust z, rep 2 = -1.05; Wolbachia per cell robust z, rep 3 = 0.665; inactive.
After knock-down of CG32855 the results were Wolbachia per cell robust z, rep 1 = -1.37; Wolbachia per cell robust z, rep 2 = -0.0799; Wolbachia per cell robust z, rep 3 = -8.15; inactive.
Depletion of Lnpk (Lunapark) #1 gave: Wolbachia per cell robust z, rep 1 = 1.5; Wolbachia per cell robust z, rep 2 = -0.695; Wolbachia per cell robust z, rep 3 = 0.948; inactive.
Knock-down of Lnpk (Lunapark) #2 came out at: Wolbachia per cell robust z, rep 1 = 0.34; Wolbachia per cell robust z, rep 2 = 0.208; Wolbachia per cell robust z, rep 3 = 0.0885; inactive.
Silencing of Ir67a (Ionotropic receptor 67a) resulted in: Wolbachia per cell robust z, rep 1 = -0.365; Wolbachia per cell robust z, rep 2 = -0.377; Wolbachia per cell robust z, rep 3 = -0.589; inactive.
Silencing of frma (fra mauro) #1 came out at: Wolbachia per cell robust z, rep 1 = 1.53; Wolbachia per cell robust z, rep 2 = 0.794; Wolbachia per cell robust z, rep 3 = 0.294; inactive.
frma (fra mauro) #2 scored Wolbachia per cell robust z, rep 1 = -4.5; Wolbachia per cell robust z, rep 2 = -8.21; Wolbachia per cell robust z, rep 3 = -8.9; inactive.
Against cato (cousin of atonal), the entry reads Wolbachia per cell robust z, rep 1 = 0.141; Wolbachia per cell robust z, rep 2 = -3.17; Wolbachia per cell robust z, rep 3 = -2.3; inactive.
CG15432 #1 gave Wolbachia per cell robust z, rep 1 = -2.69; Wolbachia per cell robust z, rep 2 = 0.28; Wolbachia per cell robust z, rep 3 = -3.06; active.
Against CG15432 #2, the values are Wolbachia per cell robust z, rep 1 = 0.461; Wolbachia per cell robust z, rep 2 = -0.00514; Wolbachia per cell robust z, rep 3 = 1.42; inactive.
Silencing of CG4835 #1 resulted in: Wolbachia per cell robust z, rep 1 = 1.38; Wolbachia per cell robust z, rep 2 = 0.619; Wolbachia per cell robust z, rep 3 = 1.32; inactive.
Depletion of CG4835 #2 gave: Wolbachia per cell robust z, rep 1 = 0.0921; Wolbachia per cell robust z, rep 2 = -0.201; Wolbachia per cell robust z, rep 3 = 0.641; inactive.
Against kst (karst) #1, the values are Wolbachia per cell robust z, rep 1 = 0.832; Wolbachia per cell robust z, rep 2 = 0.406; Wolbachia per cell robust z, rep 3 = -0.271; inactive.
Knock-down of kst (karst) #2 came out at: Wolbachia per cell robust z, rep 1 = -0.277; Wolbachia per cell robust z, rep 2 = 0.505; Wolbachia per cell robust z, rep 3 = -1.75; inactive.
Depletion of WASp #1 came out at: Wolbachia per cell robust z, rep 1 = -1.2; Wolbachia per cell robust z, rep 2 = 0.489; Wolbachia per cell robust z, rep 3 = -0.0924; inactive.
With knock-down of WASp #2 the results were Wolbachia per cell robust z, rep 1 = -1.93; Wolbachia per cell robust z, rep 2 = -0.799; Wolbachia per cell robust z, rep 3 = -1.35; inactive.
Silencing of gogo (golden goal) #1 gave: Wolbachia per cell robust z, rep 1 = -0.936; Wolbachia per cell robust z, rep 2 = -2.02; Wolbachia per cell robust z, rep 3 = -0.261; inactive.
Depletion of gogo (golden goal) #2 came out at: Wolbachia per cell robust z, rep 1 = -0.849; Wolbachia per cell robust z, rep 2 = -3.63; Wolbachia per cell robust z, rep 3 = -1.92; active.
Silencing of robo2 (roundabout 2) #1 resulted in: Wolbachia per cell robust z, rep 1 = 1.14; Wolbachia per cell robust z, rep 2 = -0.672; Wolbachia per cell robust z, rep 3 = -0.817; inactive.
For robo2 (roundabout 2) #2, the values are Wolbachia per cell robust z, rep 1 = -4.9; Wolbachia per cell robust z, rep 2 = -0.123; Wolbachia per cell robust z, rep 3 = -0.459; inactive.
Silencing of robo2 (roundabout 2) #3 gave: Wolbachia per cell robust z, rep 1 = -0.0861; Wolbachia per cell robust z, rep 2 = -0.829; Wolbachia per cell robust z, rep 3 = -0.625; inactive.
After knock-down of robo2 (roundabout 2) #4 the results were Wolbachia per cell robust z, rep 1 = 0.53; Wolbachia per cell robust z, rep 2 = 0.661; Wolbachia per cell robust z, rep 3 = 0.679; inactive.
Silencing of lost #1 gave: Wolbachia per cell robust z, rep 1 = -1.25; Wolbachia per cell robust z, rep 2 = -0.0663; Wolbachia per cell robust z, rep 3 = -1.17; inactive.
lost #2 showed Wolbachia per cell robust z, rep 1 = -1.74; Wolbachia per cell robust z, rep 2 = 0.676; Wolbachia per cell robust z, rep 3 = 0.31; inactive.
Against lost #3 the deposit lists Wolbachia per cell robust z, rep 1 = -0.208; Wolbachia per cell robust z, rep 2 = 0.377; Wolbachia per cell robust z, rep 3 = 0.129; inactive.
Depletion of Alk (Anaplastic lymphoma kinase) #1 resulted in: Wolbachia per cell robust z, rep 1 = -0.673; Wolbachia per cell robust z, rep 2 = -0.55; Wolbachia per cell robust z, rep 3 = 0.303; inactive.
Alk (Anaplastic lymphoma kinase) #2 scored Wolbachia per cell robust z, rep 1 = -1.64; Wolbachia per cell robust z, rep 2 = -0.601; Wolbachia per cell robust z, rep 3 = -3.47; active.

A run of entries taken from the entries so far:
WASp #2 | Wolbachia per cell robust z, rep 1: -1.93; Wolbachia per cell robust z, rep 2: -0.799; Wolbachia per cell robust z, rep 3: -1.35; Outcome: inactive
gogo (golden goal) #1 | Wolbachia per cell robust z, rep 1: -0.936; Wolbachia per cell robust z, rep 2: -2.02; Wolbachia per cell robust z, rep 3: -0.261; Outcome: inactive
